# Share of PSTVd loop 6 variants by leaf site

Values reported by Wu et al. 2024 (doi:10.1371/journal.ppat.1012142).

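A pool of all variants was put on leaves of three Nicotiana benthamiana plants. Progeny were sequenced from the inoculated region (day 5), the margin of the inoculated leaf (day 10) and systemic leaves (day 12).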

PSTVd intermediate strain, loop 6: wild type UGACCGCGAG, pool pattern UNNNCGNNNG; upper and lower strand joined, each 5' to 3', the first 5 letters being the upper strand, closing pairs included.

Values are reads per thousand in the sample; higher means more abundant, 0 means not found.
Each value is the mean of three plants.
"Pool" is the share in the plasmid pool used as inoculum, on the same scale.
The inoculated region was read from the minus strand, the other sites from the plus strand.
IR is the inoculated region, LM the leaf margin, Sys the systemic leaves.
Samples held 36,220 to 57,551 reads, so the smallest values rest on one or two reads.
Sequences that differ at fixed positions probably stem from PCR or sequencing errors, and defective variants can be carried along by functional ones.
Wild type was 20.7 per thousand in the pool and the most common sequence in every sample (inoculated region 195, 198, 203; leaf margin 629, 591, 734; systemic leaves 942, 870, 868).

UCAACGAACG (pool 0.261): IR 0.599; LM 0.107; Sys 0.
UGGGCGGGAG (pool 0.157): IR 0.542; LM 0.0798; Sys 0.0331.
GGACCGUUGG (pool 0.0131): IR 0.0178; LM 0; Sys 0.
UGAACGAAUG (pool 0.353): IR 0.168; LM 0.0600; Sys 0.
UCAUCGAAAG (pool 0.157): IR 0.0840; LM 0.00920; Sys 0.
UAUGCUGUGG (pool 0.0131): IR 0; LM 0; Sys 0.
UUCCCUGUCC (pool 0.0131): IR 0; LM 0; Sys 0.
UAAGCGAUAG (pool 0.445): IR 0.0949; LM 0.0851; Sys 0.
UAGACGGAUG (pool 0.209): IR 0.113; LM 0.0276; Sys 0.
UUUCCGUAAG (pool 0.0131): IR 0.101; LM 0.0155; Sys 0.
UCCCCGUAAG (pool 0.144): IR 0.0829; LM 0; Sys 0.
UCUACGGGAG (pool 0.314): IR 0.711; LM 0.0775; Sys 0.
UAGGCGCAUG (pool 0.340): IR 0.0882; LM 0.0261; Sys 0.
UACCCGCCAG (pool 0.157): IR 0.646; LM 0.0973; Sys 0.
UUACCGAAAG (pool 0.235): IR 0.615; LM 0.0852; Sys 0.
UAGGCGUUUG (pool 0.379): IR 0.0717; LM 0.00773; Sys 0.
UACACGUGAG (pool 0.170): IR 0.0599; LM 0.00773; Sys 0.
UCUACGUGGG (pool 0.157): IR 0.0887; LM 0.0169; Sys 0.
UAGCCGCAUG (pool 0.105): IR 0.0896; LM 0.0268; Sys 0.
UCGACGCGCG (pool 0.170): IR 0.0959; LM 0; Sys 0.
UACCCGCCGG (pool 0.144): IR 0.0660; LM 0.00773; Sys 0.
UAAACGUAAG (pool 0.105): IR 0.640; LM 0.0914; Sys 0.0137.
UGUUCGUACG (pool 0.301): IR 0.102; LM 0; Sys 0.
UCUCUGGGAG (pool 0.0131): IR 0; LM 0; Sys 0.

The last 3 entries again:

| sequence | pool | IR | LM | Sys |
|---|---|---|---|---|
| UAAACGUAAG | 0.105 | 0.640 | 0.0914 | 0.0137 |
| UGUUCGUACG | 0.301 | 0.102 | 0 | 0 |
| UCUCUGGGAG | 0.0131 | 0 | 0 | 0 |